In patent US20150218286A1:

Target: CD22 (human) (UniProt P20273)
Assay: cell-based or functional assay

Row | Substance | LC50, CA46 cells (Burkitt), second series [ng/mL] | LC50, 697 cells (ALL) [ng/mL] | LC50, CA46 cells (Burkitt) [ng/mL] | LC50, EU cells (ALL) [ng/mL] | LC50, KOPN 8 cells (ALL) [ng/mL] | LC50, NALM 6 cells (ALL) [ng/mL] | LC50, RAJI cells (Burkitt) [ng/mL] | LC50, REH cells (ALL) [ng/mL]
1 | HA22-LR-8X | 0.6 |  |  |  |  |  |  | 
2 | HA22-LR |  | 0.4 | 0.7 | 1 | 0.1 | 1.5 | 0.3 | 0.3
3 | HA22-LR-KDEL |  |  | 0.3 |  |  |  |  | 
